Results of unrelated studies side by side (data: NIAID ChemDB).

All rows: whole-cell or culture tests; species: Mycobacterium tuberculosis

Rows are shuffled and stem from different studies.

compound,method,strain,tested at,endpoint,value
Cc1cc(C)c(C(=O)C(=O)C(=O)c2c(C)cc(C)cc2C)c(C)c1,,H37Rv,,MIC,>100 µg/mL
CC(CCc1ccccc1)NCCNC(C)Cc1c[nH]c2ccccc12,,,,MIC,50 µM
CCN1Cc2c(/C=C/c3ccccc3)nc3ccc(OC)cc3c2N(c2cccc(Cl)c2)C1,BACTEC,H37Rv,,MIC bound,>12.5 µg/mL
CCOC(=O)Nc1cc(N)c2c(c1)N[C@@H](C)C(c1ccccc1)=N2,,H37Rv,12.5 µg/mL,inhibition,43%
Cc1c(C)c([N+](=O)[O-])c2c(c1N)C(=O)c1ccccc1C2=O,BACTEC,H37Rv,12.5 µg/mL,inhibition,-21%
O=C1CC(c2ccccc2)Oc2ccc(Br)cc21,,,,EC50,>12.5 µg/mL
CCCCCCCCCCCNCCNCCc1ccc(O)c(OC)c1,,,,MIC,12.5 µM
NC(=O)c1csc(Nc2csc(N)n2)n1,BACTEC,H37Rv,12.5 µg/mL,inhibition,-18%
Cc1cccc(OC(C)C(=O)Nc2cccc(N)c2)c1,,H37Rv,,MIC,>100 µg/mL
O=[N+]([O-])c1c(/C=N/Nc2ccccc2)oc(-c2ccc3c(c2)OCO3)c1-c1ccc2c(c1)OCO2,BACTEC,H37Rv,12.5 µg/mL,inhibition,35%
CCOC(=O)Nc1cc2nc(C)c(C(C)c3ccc(OC)cc3)nc2c(N)n1,,H37Rv,12.5 µg/mL,inhibition,66%
NC(=O)c1nc([C@@H]2O[C@H](CO)[C@@H](O)[C@H]2O)cs1,BACTEC,H37Rv,,MIC bound,>12.5 µg/mL
O=C(Nc1cc(Cl)ccc1O)c1ccccc1,,H37Rv,,MIC,25 µg/mL
COc1ccc(C2CC(=O)c3cc(C(=O)O)ccc3O2)cc1,,H37Rv,,EC50,>12.5 µg/mL
CC(C)N=c1cc2n(-c3ccc(Cl)cc3)c3ccccc3nc-2cc1Nc1ccc(Cl)cc1,broth dilution / resazurin,MDR7,,MIC,2 µg/mL
CC(CNCCNCCc1ccc(F)cc1)c1ccccc1,,,,MIC,50 µM
O=[N+]([O-])c1ccc2nc(CCl)[nH]c2c1,resazurin,H37Rv,,MIC bound,>6.25 µg/mL
OCCCCCNCCNCC12CC3CC(CC(C3)C1)C2,,,,MIC,50 µM
O=C(CC(=O)N1N=C(N(c2ccccc2)c2ccccc2)CC1c1ccccc1)Nc1ccccc1Cl,BACTEC,H37Rv,12.5 µg/mL,inhibition,0%
FC(F)(F)c1ccc(CNCCNCCN2CCOCC2)cc1,,,,MIC,50 µM
CCOC(=O)c1cccc(Br)c1,,H37Rv,,MIC,>100 µg/mL
CCOC(=O)C(=O)N(CC(=O)OC)C(=O)Cc1ccccc1,BACTEC,H37Rv,12.5 µg/mL,inhibition,0%
Nc1ccccc1/C=C/C(=O)c1cc(Br)ccc1O,,H37Rv,12.5 µg/mL,inhibition,8%
CC1(C)Nc2cccc3c(N=Nc4ccc(N=Nc5ccccc5)c5ccccc45)ccc(c23)N1,BACTEC,H37Rv,128 µg/mL,inhibition,99%
[Na+].[O-]c1ccccc1I,,H37Rv,,MIC,25 µg/mL
Cc1ccccc1C(C#N)C(=O)C(=O)Nc1nc([N+](=O)[O-])cs1,resazurin,H37Rv,6.25 µg/mL,inhibition,-6%
Cc1ccc(S(=O)(=O)N(C)c2ccc(N)cc2)cc1,,H37Rv,,MIC,>100 µg/mL
Nc1ccc(C(=O)/C=C/c2cccnc2N)cc1,,H37Rv,,EC50,>12.5 µg/mL
CCCc1c(-n2[nH]c(=O)n(-c3ccccc3)c2=O)c(=O)n(C)c(=O)n1C,resazurin,H37Rv,,MIC bound,>6.25 µg/mL
CCCCC(CC)CN1CN(CC(CC)CCCC)CC(C)(NCCNC2CCCCC2C)C1,,,,MIC,25 µM
CO[C@H]1/C=C/O[C@@]2(C)Oc3c(C)c(O)c4c(O)c(c(/C=N/N5CCN(C/C=C/c6ccccc6)CC5)c(O)c4c3C2=O)NC(=O)/C(C)=C\C=C\[C@H](C)[C@H](O)[C@@H](C)[C@@H](O)[C@@H](C)[C@H](OC(C)=O)[C@@H]1C,,3125 (rifampin-sensitive),,MIC,0.05 µg/mL
Cl.Nc1cccc(N)n1,,H37Rv,,MIC,>100 µg/mL
Nc1cccc(C(=O)/C=C/c2ccccc2I)c1,,H37Rv,,EC50,<12.5 µg/mL
Cc1c(NC(=O)CSC(=S)N2CCN(Cc3ccccc3)CC2)c(=O)n(-c2ccccc2)n1C,BACTEC,H37Rv,,MIC bound,>12.5 µg/mL
CCOC(=O)Nc1cc(N)c([N+](=O)[O-])c(Cl)n1,,H37Rv,,EC50,<12.5 µg/mL
COc1cc(O)c(C(C)=O)cc1N.Cl,,H37Rv,,MIC,>100 µg/mL
COc1ccc(C2Oc3cc(F)ccc3C(=O)C2O)cc1,,H37Rv,,EC50,12.5 µg/mL
Cc1ccc(-c2ccccn2)cc1[N+](=O)[O-],,H37Rv,,MIC,50 µg/mL
CC(=O)O[C@@H]1C[C@H]2O[C@@H]3C=C(C)CC[C@]3(C)[C@]1(C)[C@]21CO1,BACTEC,H37Rv,,MIC bound,>12.8 µg/mL
NC[C@H]1O[C@H](O[C@H]2[C@H](O)[C@@H](O[C@H]3O[C@H](CO)[C@@H](O)[C@H](N)[C@H]3O)[C@H](N)C[C@@H]2N)[C@H](O)[C@@H](O)[C@@H]1O,,TN3605 (W1),,MIC,>256 µg/mL
Cc1cc(C)c(CC(=O)O)c(C)c1,,H37Rv,,MIC,>100 µg/mL
COc1ccc(CNCCNC23CC4CC(CC(C4)C2)C3)c(OC)c1,,,,MIC,25 µM
O=c1cc(-c2ccc(O)c(-c3c(O)cc(O)c4c(=O)cc(-c5ccc(O)cc5)oc34)c2)oc2cc(O)cc(O)c12,,,,EC50,>12.5 µg/mL
CC(C)CC(C)NCCNC[C@]1(C)CCC[C@]2(C)c3ccc(C(C)C)cc3CC[C@@H]12,,,,MIC,25 µM
CS(N)(=O)=O,,H37Rv,,MIC,>100 µg/mL
OC1c2ccccc2-c2ccccc2C1O,resazurin,H37Rv,6.25 µg/mL,inhibition,-4%
Clc1ccc(CCNCCNCc2cccc3ccccc23)c(Cl)c1,,,,MIC,25 µM
COC(=O)CCCCC(=O)Nc1ccc(O)cc1,,H37Rv,,MIC,>100 µg/mL
CC(=O)N/N=C(\N)c1nc2c(n3nc(C)nc13)CCCC2,BACTEC,H37Rv,12.5 µg/mL,inhibition,0%
Cc1cc(S(=O)(=O)O)c(C)cc1N,,H37Rv,,MIC,>100 µg/mL
CCOC(=O)Nc1cc2c(c(NC(=O)CBr)n1)N=C(c1ccccc1)CO2,,H37Rv,,EC50,>12.5 µg/mL
Cc1nc2cc3oc4ccccc4c3cc2[nH]1,,H37Rv,,MIC,50 µg/mL
CO[C@H]1/C=C/O[C@@]2(C)Oc3c(C)c(O)c4c(=O)c(c5oc6cc(N7CCN(CC(C)C)CC7)cc(=O)c6nc5c4c3=C2O)NC(=O)/C(C)=C\C=C\[C@H](C)[C@H](O)[C@@H](C)[C@@H](O)[C@@H](C)[C@H](OC(C)=O)[C@@H]1C,,29 (rifampin-resistant),,MIC,0.025 µg/mL
Oc1ccc(-c2ccc(O)c3ccccc23)c2ccccc12,,H37Rv,,MIC,100 µg/mL
CCCCCCCCCCCNCCN[C@@H](C)C1CCCCC1,,,,MIC,25 µM
CC(C)(C)CC(C)(C)NCCNCc1ccc(C(F)(F)F)cc1,,,,MIC,37.5 µM
O=S(=O)(c1ccc(O)cc1)c1ccc(O)cc1,,H37Rv,,MIC,100 µg/mL
CCCCCCCCCCCCCCCCNC(=S)N=Nc1cc(C(C)C)c(NNC(=S)NCCCCCCCCCCCCCCCC)cc1C,BACTEC,H37Rv,,MIC bound,>12.5 µg/mL
C[C@@H]1[C@H]2C[C@@H](C[C@H]1NCCNCCc1cccc(F)c1)C2(C)C,,,,MIC,50 µM
NC(N)=NS(=O)(=O)c1ccccc1,,H37Rv,,MIC,>100 µg/mL
COc1ccc(/C=C/C(=O)c2cc(I)ccc2O)cc1,,H37Rv,,EC50,>12.5 µg/mL
N#Cc1c(N)[n+]([O-])c2c([n+]1[O-])CCCC2,BACTEC,H37Rv,,MIC,≥12.5 µg/mL
CCOC(=O)Nc1cc(NCc2ccccc2)c([N+](=O)[O-])c(N)n1,,H37Rv,,EC50,<12.5 µg/mL
Cc1ccc(S(=O)(=O)N2CCSCCN(S(=O)(=O)c3ccc(C)cc3)CCN(S(=O)(=O)c3ccc(C)cc3)CC2)cc1,resazurin,H37Rv,6.25 µg/mL,inhibition,18%
S=c1sc([S-])nn1-c1ccccc1.[K+],,H37Rv,,MIC,>100 µg/mL
COc1ccc(/C=N/NC(=O)CN(CC(=O)N/N=C/c2ccc(OC)cc2)N=O)cc1,BACTEC,H37Rv,,MIC bound,>12.5 µg/mL
CCOC(=O)c1cnc2ccccc2c1.Cl,,H37Rv,,MIC,100 µg/mL
Cc1c2oc3c(C)ccc(C(=O)NCCN4CCOCC4)c3nc-2c(C(=O)NCCN2CCOCC2)c(N)c1=O,BACTEC,H37Rv,12.5 µg/mL,inhibition,15%
OCCN1CCN(CCO)C1=S,,H37Rv,,MIC,50 µg/mL
COc1ccccc1CCNCCN[C@@H]1C[C@@H]2C[C@H]([C@H]1C)C2(C)C,,,,MIC,25 µM

ECn is the concentration giving n% inhibition of infection, replication or growth. Percent inhibition refers to the dose given; in toxicity tests it is the harm to the cells. MIC bound comes from a single tested concentration. An empty or dashed field is not shown.